Experimental findings from patent publication US9061967B2 (priority 2010, dated 2015) are described below.

Test [1] relates to cucumber downy mildew (Pseudoperonospora cubensis). The test is described as follows: Protectant activity in vivo against cucumber downy mildew. As to conditions: for Protectant activity (%) against cucumber downy mildew in vivo: Table 7.
Test [2] concerns corn rust (Puccinia sorghi). In words: Protectant activity in vivo against corn rust. As to conditions: for Protectant activity (%) against corn rust in vivo: Table 8.
Test [3] has as its system rice blast (Magnaporthe grisea). In words: Activity in vitro, inhibition rate against rice blast. The following applies: for Inhibition rate against rice blast (%): Table 9. The class given is cell-based.
Test [4] concerns cucumber gray mold (Botrytis cinerea). In words: Activity in vitro, inhibition rate against cucumber gray mold. The following applies: for Inhibition rate against cucumber gray mold (%): Table 9; for inhibition rate against cucumber gray mold: dose 0.3 mg/L. The class given is cell-based.
For test [5], the system named is rice sheath blight (Rhizoctonia solani Palo). In words: Activity in vitro against rice sheath blight. The class given is cell-based.
In test [6] the test system is corn southern leaf blight (Helminthosporium maydis). The test is described as follows: Activity in vitro against corn southern leaf blight. The format is cell-based.
Test [7] has as its system cucumber fusarium wilt (Fusarium oxysporum f. sp.). In words: Activity in vitro against cucumber fusarium wilt. The class given is cell-based.
For test [8], the system named is pear scab (Fusicladium pirina). The test is described as follows: Activity in vitro against pear scab. The format is cell-based.
Test [9] relates to cotton nthracnose (Colletotrichum gossypii Southw.). The test is described as follows: Activity in vitro against cotton anthracnose. The format is cell-based.
For test [10], the system named is cotton verticillium wilt (Verticillium dahliae Kleb). The test is described as follows: Activity in vitro against cotton verticillium wilt. The class given is cell-based.
The subject of test [11] is rape sclertiniose (Sclerotinia sclerotiorum). The test is described as follows: Activity in vitro against rape sclertiniose. The format is cell-based.
In test [12] the test system is cucumber anthracnose (Colletotrichum lagenarium). The test is described as follows: Protectant activity in vivo against cucumber anthracnose. The following applies: dose 400 mg/L.

As for `Cc1c(Cl)c([N+](=O)[O-])cc([N+](=O)[O-])c1Nc1c([N+](=O)[O-])cc(C(F)(F)F)c(Cl)c1[N+](=O)[O-]`, the “protectant activity against cucumber downy mildew in vivo” value in test [1] (dose 100 mg/L) and in test [1] (dose 400 mg/L) was 100% throughout. Moreover, in test [2] (dose 400 mg/L), the “protectant activity against corn rust in vivo” value was determined as 100%.
Regarding `Cc1c(Cl)c([N+](=O)[O-])cc([N+](=O)[O-])c1Nc1c(Cl)cc([N+](=O)[O-])cc1Cl`, the “Inhibition rate against rice blast (%)” value in test [3] (0.03 mg/L) is 80%; in test [3] (0.3 mg/L) it was 100%. Further, the “inhibition rate against rice blast” value in test [3] (dose 0.03 mg/L) is 80%. Also, the “Inhibition rate against cucumber gray mold (%)” value was determined as 50% in test [4] (0.03 mg/L), 100% in test [4] (0.1 mg/L) and 100% in [4] (0.3 mg/L). The “inhibition rate against cucumber gray mold” value in test [4] came out at 100%. The “Protectant activity (%) against cucumber downy mildew in vivo” value in test [1] (3.125 mg/L) was 90%; in test [1] (12.5 mg/L) it was 100%; in test [1] (50 mg/L), 100%. The “protectant activity against cucumber downy mildew in vivo” value in test [1] (dose 12.5 mg/L), in test [1] (dose 50 mg/L), in test [1] (dose 100 mg/L) and in test [1] (dose 400 mg/L) was 100% in each case. Moreover, the “protectant activity against corn rust in vivo” value in [2] (dose 100 mg/L) and in [2] (dose 400 mg/L) was 100% throughout. Moreover, the “Activity in vitro (%), rice sheath blight” value in test [5] (0.1 mg/L) came out at 74%; in test [5] (1 mg/L), 95%; in [5] (10 mg/L) it was 100%. The entries for the “Activity in vitro (%), corn southern leaf blight” value in test [6] (0.1 mg/L), in [6] (1 mg/L) and in [6] (10 mg/L) were 54%, 100% and 100%, respectively. In addition, the entries for the “Activity in vitro (%), cucumber fusarium wilt” value in test [7] (0.1 mg/L), in test [7] (1 mg/L) and in test [7] (10 mg/L) were 79%, 91% and 99%, respectively. In addition, the results for the “Activity in vitro (%), pear scab” value in test [8] (0.1 mg/L), in test [8] (1 mg/L) and in [8] (10 mg/L) were 87%, 99% and 100%, respectively. Besides, the “Activity in vitro (%), cotton nthracnose” value in [9] (0.1 mg/L) is 94%; in [9] (1 mg/L) it was 100%; in [9] (10 mg/L), 100%. The results for the “Activity in vitro (%), cotton verticillium wilt” value in test [10] (0.1 mg/L), in [10] (1 mg/L) and in [10] (10 mg/L) were 82%, 100% and 100%, respectively. Further, the “Activity in vitro (%), rape sclertiniose” value stood at 88% in test [11] (0.1 mg/L), 100% in test [11] (1 mg/L) and 100% in test [11] (10 mg/L). The “protectant activity against cucumber anthracnose in vivo” value in [12] turned out to be 100%.
Consider `Cc1c(Cl)c([N+](=O)[O-])cc([N+](=O)[O-])c1Nc1c(Cl)cc(Cl)cc1[N+](=O)[O-]`, for which the “Inhibition rate against cucumber gray mold (%)” value in test [4] (0.03 mg/L) was found to be 0%; in [4] (0.1 mg/L), 50%; in test [4] (0.3 mg/L), 80%. In test [4], the “inhibition rate against cucumber gray mold” value is on record as 80%. Moreover, the “Protectant activity (%) against cucumber downy mildew in vivo” value in test [1] (3.125 mg/L) stood at 65%; in test [1] (12.5 mg/L) it was 80%; in test [1] (50 mg/L) it was 100%. Further, the “protectant activity against cucumber downy mildew in vivo” value in [1] (dose 50 mg/L), in test [1] (dose 100 mg/L) and in test [1] (dose 400 mg/L) was 100% each time. Further, the “Protectant activity (%) against corn rust in vivo” value in [2] (6.25 mg/L) was determined as 0%; in test [2] (25 mg/L), 20%; in [2] (100 mg/L), 70%. In addition, the “protectant activity against corn rust in vivo” value in test [2] (dose 400 mg/L) was 100%.
